{"source": "patent US20210338708A1", "about": "“METHOD FOR TREATMENT OF CORONAVIRUS INFECTION” (Renibus Therapeutics, Inc., priority 2020, published 2021)", "tested_on": "SARS-CoV-2", "experiment": "Reduction of virus-induced cytopathic effect (visual and neutral red) within secondary assay", "format": "cell-based, SARS-CoV-2 USA_WA1/2020", "protocol": "Confluent or near-confluent cell culture monolayers of Vero 76 cells are prepared in 96-well disposable microplates the day before testing. Cells are maintained in minimum essential medium (MEM) supplemented with 5% FBS. For antiviral assays the same medium is used but with FBS reduced to 2% and supplemented with 50-μg/ml gentamicin. Compounds are dissolved in DMSO, saline or the diluent requested by the submitter. […] The test compound is prepared at four serial log 10 concentrations, usually 0.1, 1.0, 10, and […] or μM (per sponsor preference). Lower concentrations are used when insufficient compound is supplied. Five microwells are used per dilution: three for infected cultures and two for uninfected toxicity cultures. Controls for the experiment consist of six microwells that are infected and not treated (virus controls) and six that are untreated and uninfected (cell controls) on every plate. A known active drug is tested in parallel as a positive control drug using the same method as is applied for test compounds. […]\nGrowth media is removed from the cells and the test compound is applied in 0.1 ml volume to wells at 2× concentration. […] The dye content in each well is quantified using a spectrophotometer at 540 nm wavelength. […]\nActive compounds are further tested in a confirmatory assay. […] The incorporated dye content is quantified as described above to generate the EC50 and CC50 values."}
{"smiles": "C=CC1=C(C)c2cc3[n-]c(cc4[n-]c(cc5nc(cc1n2)C(C)=C5C=C)c(C)c4CCC(=O)O)c(CCC(=O)O)c3C.[Sn+2]", "note": "[RBT-9, Stannous protoporphyrin]", "values": [{"measurement": "NR SI", "setting": "CC50/EC50, neutral red", "value": 26}, {"measurement": "VIS SI", "setting": "CC50/EC50, visual", "value": 18}]}
